The target in this assay is BoNT/A2-HC (6xHis-TrxA removed with thrombin) (UniProt Q45894 871-1296).

B1: luminal domain (LD) of human SV2C (domain or fragment, UniProt Q496J9 456-574, looked up)
chain: DVIKPLQSDEYALLTRNVERDKYANFTINFTMENQIHTGMEYDNGRFIGVKFKSVTFKDSVFKSCTFEDVTSVNTYFKNCTFIDTVFDNTDFEPYKFIDSEFKNCSFFHNKTGCQITFD
notes: also called SV2C-LD; untagged SV2C-LD; not shown: 6xHis, N-terminal, cleaved
Consider B1, for which the binding result was “binds”.

(Values after publication PMC5333631 (Scientific Reports, 2017).)
